Anti-infective test results gathered from many reports (values: NIAID ChemDB through PubChem).

Common to all: tests in culture; agent: Mycobacterium tuberculosis

Inhibition is in % at the dose shown (toxicity tests: loss of growth or viability). An empty or dashed field is not shown. Neighbouring rows are from separate reports. MIC bound: limit read from a one-dose screen.

smiles,strain or isolate,mutations,read by,measure,tested at,result
COc1ccc(OC)c(Sc2ncnc3nc[nH]c23)c1,H37Ra,,,MIC,,>12.8 µg/mL
CC[C@H]1OC(=O)[C@H](C)[C@@H](O[C@H]2C[C@@](C)(OC)[C@@H](O)[C@H](C)O2)[C@H](C)[C@@H](O[C@@H]2O[C@H](C)C[C@H](N(C)C)[C@H]2O)[C@](C)(O)C[C@@H](C)C(=O)[C@H](C)[C@@H](O)[C@]1(C)O,ATCC 35822,,,MBC,,>8 µg/mL
CCCCCNCCNC1(C)CN(CC(CC)CCCC)CN(CC(CC)CCCC)C1,,,,MIC,,50 µM
CC(C)CC(NC(=O)C(Cc1ccccc1)NC(=O)OCc1ccccc1)C(=O)NC(C)C(=O)O,H37Rv,,BACTEC,inhibition,12.5 µg/mL,0%
NNC(=O)c1ccncc1,H37Ra,,,Mean MIC,,0.025 µg/mL
O=C(N/N=C/c1ccc(O)cc1)c1ccccc1Cl,,,,MIC,,40 µg/mL
NC1CCN(c2c(F)cc3c(=O)c(C(=O)O)cn(C4CC4)c3c2Cl)C1,H37Rv,,,MIC,,0.06 µg/mL
CSc1nc2c(c(O)c(C)c(=O)n2C2OC(COC(C)=O)C(OC(C)=O)C(OC(C)=O)C2OC(C)=O)c(=O)n1C,H37Rv,,resazurin,MIC bound,,>6.25 µg/mL
COc1ccc(C(=O)NN)c(OC)c1,,,,MIC,,200 µg/mL
CC(=O)NC[C@H]1CN(c2ccc(N3CCOCC3)c(F)c2)C(=O)O1,Clinical isolate BRF 45,INH RIF resistant,resazurin,MIC,,0.25 µg/mL
CC[C@H]1OC(=O)[C@H](C)[C@@H](O[C@H]2C[C@@](C)(OC)[C@@H](O)[C@H](C)O2)[C@H](C)[C@@H](O[C@@H]2O[C@H](C)C[C@H](N(C)C)[C@H]2O)[C@](C)(OC)C[C@@H](C)C(=O)[C@H](C)[C@@H](O)[C@]1(C)O,H37Ra,,,Median MIC,,6 µg/mL
CN1c2ccccc2CCC1CCc1ccc2c(c1)OCO2,MT10,,,MIC,,>100 µg/mL
C[C@H]1COc2c(N3CCN(C)CC3)c(F)cc3c(=O)c(C(=O)O)cn1c23,ATCC 35822,,,MIC,,0.25 µg/mL
CCOC(=O)c1oc2cc(O)cc(C)c2c1C,H37Rv,,BACTEC,inhibition,12.5 µg/mL,21%
O=c1nc(SCc2ccccc2[N+](=O)[O-])c2[nH]cnc2[nH]1,H37Ra,,,MIC,,16 µg/mL
COc1ccc(CCc2cc(OC)c3ccccc3n2)cc1OC,MT6,,,MIC,,19 µg/mL
C[C@@H]1[C@H]2C[C@@H](C[C@H]1NCCNC1CCCCCCC1)C2(C)C,,,,MIC,,6.25 µM
CC1COc2c(N3CCN(C)CC3)c(F)cc3c(=O)c(C(=O)O)cn1c23,H37Rv,,,MIC,,0.75 µg/mL
CO[C@H]1/C=C/O[C@@]2(C)Oc3c(C)c(O)c4c(O)c(c(/C=N/N5CCN(C)CC5)c(O)c4c3C2=O)NC(=O)/C(C)=C\C=C\[C@H](C)[C@H](O)[C@@H](C)[C@@H](O)[C@@H](C)[C@H](OC(C)=O)[C@@H]1C,Clinical isolate 18460,Rifampicin- and isoniazid-resistant,broth dilution,MIC,,≤10 µM
CO[C@H]1/C=C/O[C@@]2(C)Oc3c(C)c(O)c4c(O)c(c(/C=N/N5CCN(C6CCCC6)CC5)c(O)c4c3C2=O)NC(=O)/C(C)=C\C=C\[C@H](C)[C@H](O)[C@@H](C)[C@@H](O)[C@@H](C)[C@H](OC(C)=O)[C@@H]1C,Isolate 900240 drug-susceptible,,,MIC,,0.063 µg/mL
Cc1ccc(Sc2ncccn2)cc1,H37Rv,,,inhibition,6.25 µg/mL,0%
CNC(=O)c1n[nH]c(C)c1[N+](=O)[O-],H37Rv,,BACTEC,MIC bound,,>12.5 µg/mL
CO[C@H]1/C=C/O[C@@]2(C)Oc3c(C)c(O)c4c(=O)c(c5oc6cc(N7CCN(CC(C)C)CC7)cc(=O)c6nc5c4c3=C2O)NC(=O)/C(C)=C\C=C\[C@H](C)[C@H](O)[C@@H](C)[C@@H](O)[C@@H](C)[C@H](OC(C)=O)[C@@H]1C,TN792,,,MIC,,<1 µg/mL
CC(=O)Oc1c(C)c2c(O)c3c1C1=C(OCOC1=C(C)C3=O)/C(C)=C/[C@@](C)(O)[C@H](O)[C@@H](C)[C@@H](O)[C@H](C(=O)O)[C@H](O)[C@H](C)C(O)[C@H](C)/C=C\C=C(/C)C(=O)N2,PAS-R,,,MIC,,3.2 µg/mL
c1ccc2c(c1)CC(NCCNC1C3CC4CC(C3)CC1C4)C2,,,,MIC,,25 µM
CCCN(CCC)C(=S)Sc1nc(C)nc(N2CCN(c3nc(C)nc(SC(=S)N(CCC)CCC)c3[N+](=O)[O-])CC2)c1[N+](=O)[O-],H37Rv,,resazurin,inhibition,6.25 µg/mL,22%
CCOc1ccc(C(=O)N/N=C\C(O)C(O)C(O)C(O)CO)cc1,,,,MIC,,40 µg/mL
Clc1ccc(Sc2nc(Cl)nc3nc[nH]c23)cc1,H37Ra,,,MIC,,>12.8 µg/mL
CC(C)N=c1cc2n(-c3ccc(Cl)cc3)c3ccccc3nc-2cc1Nc1ccc(Cl)cc1,MDR17,,broth dilution / resazurin,MIC,,0.25 µg/mL
CC[C@]12CCCN3CCc4c(n(c5ccccc45)C(=O)C1)[C@@H]32,H37Rv,,BACTEC,MIC bound,,>12.5 µg/mL
CO[C@H]1/C=C/O[C@@]2(C)Oc3c(C)c(O)c4c(=O)c(c5oc6cc(N7CCN(C(C)C)CC7)cc(=O)c6nc5c4c3=C2O)NC(=O)/C(C)=C\C=C\[C@H](C)[C@H](O)[C@@H](C)[C@@H](O)[C@@H](C)[C@H](OC(C)=O)[C@@H]1C,3125 (rifampin-sensitive),,,MIC,,0.025 µg/mL
CC(=O)NNS(=O)(=O)c1ccccc1,,,,MIC,,>40 µg/mL
COc1cccc(OC)c1/C=C1\N=C(c2ccccc2)OC1=O,H37Rv,,BACTEC,inhibition,12.5 µg/mL,3%
CC(CNCCc1ccccc1F)NCC12CC3CC(CC(C3)C1)C2,,,,MIC,,25 µM
CO/C(C)=C1/NC(=O)[C@H]([C@@H](C)O)NC(=O)c2csc(n2)-c2cc(O)c(-c3nc(C(=O)NCc4cnn(C)c4)cs3)nc2-c2csc(n2)[C@@H]2COC(=O)c3c4c5c(cccc5n3O)COC(=O)[C@@H](O[C@H]3C[C@](C)(O)[C@H](N(C)C)[C@H](C)O3)[C@@H](OC4)[C@H](NC(=O)c3csc1n3)c1nc(cs1)C(=O)N2,H37Rv,,broth dilution,MIC,,≤1 µM
O=c1[nH]nc(OCc2ccccc2)c2ncn(Cc3ccccc3)c12,H37Rv,,BACTEC,inhibition,12.5 µg/mL,0%
Cc1cccc(CSc2nc(=O)[nH]c3nc[nH]c23)c1,H37Rv,,,inhibition,6.25 µg/mL,0%
Cc1c(N)nc([C@H](CC(N)=O)NC[C@@H](N)C(N)=O)nc1C(=O)N[C@H](C(=O)NC(C)C(O)CC(=O)NC(C(=O)NC(OC1OC(C)C(N)C(O)C1O)C(O)c1nc(-c2nc(C(=O)NCCCCN)cs2)cs1)[C@H](C)O)C(OC1OC(CO)C(O)C(O)C1OC1OC(CO)C(O)C(OC(N)=O)C1O)c1cnc[nH]1.Cl.Cl.Cl.Cl,RMP-R,,,MIC,,0.1 µg/mL
COc1ccc(Sc2ncccn2)cc1,H37Ra,,,MIC,,>12.8 µg/mL
Cc1ccc(NC(=O)C(C)Cl)cc1Cl,H37Rv,,BACTEC,MIC bound,,>12.5 µg/mL
CO[C@H]1/C=C/O[C@@]2(C)Oc3c(C)c(O)c4c(O)c(c(/C=N/N5CCN(C)CC5)c(O)c4c3C2=O)NC(=O)/C(C)=C\C=C\[C@H](C)[C@H](O)[C@@H](C)[C@@H](O)[C@@H](C)[C@H](OC(C)=O)[C@@H]1C,Isolate 13,,,MIC,,<0.03 µg/mL
COc1cc(/C=N/NC(=O)C(C)SC(C)C(=O)N/N=C/c2cc(OC)c(OC)c(OC)c2)cc(OC)c1OC,H37Rv,,BACTEC,MIC bound,,>12.5 µg/mL
CC(C)c1ccc2c(c1)CC[C@H]1[C@](C)(CNCCNCCC(c3ccccc3)c3ccccc3)CCC[C@]21C,,,,MIC,,12.5 µM
C=C(NC(=O)c1csc(-c2nc3c(cc2O)-c2nc(cs2)C(=O)N[C@@H]([C@@H](C)O)C(=O)N/C(=C(\C)OC)c2nc(cs2)C(=O)N[C@@H]2c4nc(cs4)C(=O)N[C@@H](COC(=O)c4c5c6c(cccc6n4O)COC(=O)[C@@H](O[C@H]4C[C@](C)(O)[C@H](N(C)C)[C@H](C)O4)[C@H]2OC5)c2nc-3cs2)n1)C(N)=O,Clinical isolate 18343,Isoniazid- and moxifloxacin-resistant,broth dilution,MIC,,≤2.5 µM
Nc1nc(Cl)cc(NCCCCCCCCCCCCNc2cc(Cl)nc(N)n2)n1,H37Rv,,BACTEC,MIC bound,,≤12.5 µg/mL
NC[C@H]1O[C@H](O[C@H]2[C@H](O)[C@@H](O[C@H]3O[C@H](CO)[C@@H](O)[C@H](N)[C@H]3O)[C@H](N)C[C@@H]2N)[C@H](O)[C@@H](O)[C@@H]1O,Isolate 16,,,MIC,,1 µg/mL
O=c1c2ccccc2c(=O)c2c1ccc1[nH]c3ccccc3n(-c3ccccc3)c12,H37Rv,,BACTEC,MIC bound,,>12.5 µg/mL
CO[C@H]1/C=C/O[C@@]2(C)Oc3c(C)c(O)c4c(O)c(c(/C=N/N5CCN(C)CC5)c(O)c4c3C2=O)NC(=O)/C(C)=C\C=C\[C@H](C)[C@H](O)[C@@H](C)[C@@H](O)[C@@H](C)[C@H](OC(C)=O)[C@@H]1C,PR1370,,,MIC,,0.16 µg/mL
C[C@H]1COc2c(N3CCN(C)CC3)c(F)cc3c(=O)c(C(=O)O)cn1c23,Isolate 16,,,MIC,,0.25 µg/mL
O=[N+]([O-])c1ccc(/C=C/C(CCN2CCCCC2)=N/O)o1,H37Rv,,BACTEC,MIC bound,,>12.5 µg/mL
NNC(=O)c1ccncc1,9127,,,MIC,,≥0.2 µg/mL
COc1ccc(C(=O)CN2CCN(CC(=O)c3ccc(OC)cc3)CC2)cc1,H37Rv,,BACTEC,MIC bound,,>12.8 µg/mL
CN(C)c1ccc(O)c2c1C[C@H]1C[C@H]3[C@H](N(C)C)C(=O)C(C(N)=O)=C(O)[C@@]3(O)C(=O)C1=C2O,H37Rv,,,Mean MIC,,5 µg/mL
NNC(=O)c1ccncc1,TRC-resistant,,,MIC,,0.05 µg/mL
NC(=O)c1cnccn1,Isolate 9579 monodrug-resistant,,,MIC,,>300 µg/mL
NNC(=O)c1ccncc1,Clinical isolate 13923,,broth dilution,MIC,,≤0.2 µM
CCOC(=O)C1=CNc2c(C#N)cnn2C1(C(=O)OCC)c1cn(C)c2ccccc12,H37Rv,,BACTEC,MIC bound,,>6.25 µg/mL
CC[C@H]1OC(=O)[C@H](C)[C@@H](O[C@H]2C[C@@](C)(OC)[C@@H](O)[C@H](C)O2)[C@H](C)[C@@H](O[C@@H]2O[C@H](C)C[C@H](N(C)C)[C@H]2O)[C@](C)(OC)C[C@@H](C)C(=O)[C@H](C)[C@@H](O)[C@]1(C)O,98596,,,MIC,,>4 µg/mL
CC(NCCNC[C@@H]1CC[C@H]2C[C@@H]1C2(C)C)c1cccc2ccccc12,,,,MIC,,50 µM
CO/C(C)=C1/NC(=O)[C@H]([C@@H](C)O)NC(=O)c2csc(n2)-c2cc(O)c(-c3nc(C(=O)NCCCN4CCOCC4)cs3)nc2-c2csc(n2)[C@@H]2COC(=O)c3c4c5c(cccc5n3O)COC(=O)[C@@H](O[C@H]3C[C@](C)(O)[C@H](N(C)C)[C@H](C)O3)[C@@H](OC4)[C@H](NC(=O)c3csc1n3)c1nc(cs1)C(=O)N2,Clinical isolate 6134,Rifampicin- isoniazid- moxifloxacin-resistant,broth dilution,MIC,,≤2.5 µM
CO[C@H]1/C=C/O[C@@]2(C)Oc3c(C)c(O)c4c(O)c(c(/C=N/N5CCN(C6CCCC6)CC5)c(O)c4c3C2=O)NC(=O)/C(C)=C\C=C\[C@H](C)[C@H](O)[C@@H](C)[C@@H](O)[C@@H](C)[C@H](OC(C)=O)[C@@H]1C,L188,,,MIC,,0.2 µg/mL
CCO/C=C1\N=C(COc2ccc(Cl)cc2C)OC1=O,H37Rv,,BACTEC,MIC bound,,>12.5 µg/mL
Cc1ccc(C)c(Sc2ncccn2)c1,H37Rv,,,inhibition,6.25 µg/mL,0%
Nc1nc(Cl)cc(Nc2ccc(CCO)cc2)n1,H37Rv,,BACTEC,MIC bound,,>12.5 µg/mL
COc1ccc(CCNCCNCCc2ccc(Cl)cc2Cl)cc1OC,,,,MIC,,50 µM
O=c1nc(SCc2ccccc2F)c2[nH]cnc2[nH]1,H37Ra,,,MIC,,8 µg/mL
CC1CN(c2cc3c(cc2F)c(=O)c(C(=O)O)cn3-c2ccc(F)cc2F)CCN1,ATCC 35820,,,MBC,,1 µg/mL
O=C(NN=C1CCCCC1)c1ccccc1,,,,MIC,,50 µg/mL
O=[N+]([O-])c1nccn1[C@@H]1O[C@H](CO)[C@@H](O)[C@H]1O,H37Rv,,resazurin,inhibition,6.25 µg/mL,8%
CCC[C@@H]1C[C@@H](C(=O)N[C@@H]([C@H]2O[C@H](SC)[C@H](O)[C@@H](O)[C@H]2O)[C@@H](C)O)N(C)C1,H37Ra,,,Mean MIC,,>256 µg/mL

Repeating the first 7 entries:

smiles,strain or isolate,mutations,read by,measure,tested at,result
COc1ccc(OC)c(Sc2ncnc3nc[nH]c23)c1,H37Ra,,,MIC,,>12.8 µg/mL
CC[C@H]1OC(=O)[C@H](C)[C@@H](O[C@H]2C[C@@](C)(OC)[C@@H](O)[C@H](C)O2)[C@H](C)[C@@H](O[C@@H]2O[C@H](C)C[C@H](N(C)C)[C@H]2O)[C@](C)(O)C[C@@H](C)C(=O)[C@H](C)[C@@H](O)[C@]1(C)O,ATCC 35822,,,MBC,,>8 µg/mL
CCCCCNCCNC1(C)CN(CC(CC)CCCC)CN(CC(CC)CCCC)C1,,,,MIC,,50 µM
CC(C)CC(NC(=O)C(Cc1ccccc1)NC(=O)OCc1ccccc1)C(=O)NC(C)C(=O)O,H37Rv,,BACTEC,inhibition,12.5 µg/mL,0%
NNC(=O)c1ccncc1,H37Ra,,,Mean MIC,,0.025 µg/mL
O=C(N/N=C/c1ccc(O)cc1)c1ccccc1Cl,,,,MIC,,40 µg/mL
NC1CCN(c2c(F)cc3c(=O)c(C(=O)O)cn(C4CC4)c3c2Cl)C1,H37Rv,,,MIC,,0.06 µg/mL